Columns and labels:
[1] = Example 1: fish weight of treated groups; assay type: in vivo, Atlantic Salmon, S. salar; settings: sea water
[2] = Example 2: fish weight of treated groups; assay type: in vivo, Atlantic salmon (Salmo salar); settings: fresh water

O=C(NC(=O)c1c(F)cccc1F)Nc1cc(Cl)c(OC(F)(F)C(F)C(F)(F)F)cc1Cl (stereo not drawn) [lufenuron, N-{[2,5-Dichlor-4-(1,1,2,3,3,3-hexafluorpropoxy)phenyl]carbamoyl}-2,6-difluorbenzamid]
Weight ([1]; 3 mg/kg/day 7 days in-feed, 1 month post-treatment): 409 g | Weight ([1]; 3 mg/kg/day 7 days in-feed, 1 week post-treatment): 283 g | Weight ([1]; 3 mg/kg/day 7 days in-feed, 2 month post-treatment): 600 g | Weight ([1]; 3 mg/kg/day 7 days in-feed, 3 month post-treatment): 915 g | Weight ([1]; 3 mg/kg/day 7 days in-feed, 5 month post-treatment): 1410 g | Weight ([1]; 3 mg/kg/day 7 days in-feed, 6 month post-treatment): 1797 g | Weight ([1]; 3 mg/kg/day 7 days in-feed, 1 day post-treatment): 263 g | Weight ([1]; 5 mg/kg/day 7 days in-feed, 1 month post-treatment): 407 g | Weight ([1]; 5 mg/kg/day 7 days in-feed, 1 week post-treatment): 294 g | Weight ([1]; 5 mg/kg/day 7 days in-feed, 2 month post-treatment): 701 g | Weight ([1]; 5 mg/kg/day 7 days in-feed, 3 month post-treatment): 1000 g | Weight ([1]; 5 mg/kg/day 7 days in-feed, 4 month post-treatment): 1241 g | Weight ([1]; 5 mg/kg/day 7 days in-feed, 5 month post-treatment): 1593 g | Weight ([1]; 5 mg/kg/day 7 days in-feed, 6 month post-treatment): 1655 g | Weight ([1]; 5 mg/kg/day 7 days in-feed, 7 month post-treatment): 1995 g | Weight ([1]; 5 mg/kg/day 7 days in-feed, 8 month post-treatment): 1980 g | Weight ([1]; 5 mg/kg/day 7 days in-feed, 9 month post-treatment): 2290 g | Weight ([1]; 5 mg/kg/day 7 days in-feed, 1 day post-treatment): 253 g | Weight ([1]; 10 mg/kg/day 7 days in-feed, 1 month post-treatment): 423 g | Weight ([1]; 10 mg/kg/day 7 days in-feed, 1 week post-treatment): 296 g | Weight ([1]; 10 mg/kg/day 7 days in-feed, 2 month post-treatment): 644 g | Weight ([1]; 10 mg/kg/day 7 days in-feed, 3 month post-treatment): 974 g | Weight ([1]; 10 mg/kg/day 7 days in-feed, 4 month post-treatment): 1161 g | Weight ([1]; 10 mg/kg/day 7 days in-feed, 5 month post-treatment): 1440 g | Weight ([1]; 10 mg/kg/day 7 days in-feed, 6 month post-treatment): 1628 g | Weight ([1]; 10 mg/kg/day 7 days in-feed, 7 month post-treatment): 1905 g | Weight ([1]; 10 mg/kg/day 7 days in-feed, 8 month post-treatment): 2091 g | Weight ([1]; 10 mg/kg/day 7 days in-feed, 9 month post-treatment): 2065 g | Weight ([1]; 10 mg/kg/day 7 days in-feed, 1 day post-treatment): 256 g | Weight ([2]; 1 mg/kg/day 7 days in-feed, 5 days post sea transfer): 109 g | Weight ([2]; 1 mg/kg/day 7 days in-feed, 15 days post sea transfer): 98 g | Weight ([2]; 1 mg/kg/day 7 days in-feed, 42 days post sea transfer): 135 g | Weight ([2]; 1 mg/kg/day 7 days in-feed, 76 days post sea transfer): 196 g | Weight ([2]; 1 mg/kg/day 7 days in-feed, 98 days post sea transfer): 258 g | Weight ([2]; 1 mg/kg/day 7 days in-feed, 125 days post sea transfer): 303 g | Weight ([2]; 1 mg/kg/day 7 days in-feed, 154 days post sea transfer): 358 g | Weight ([2]; 5 mg/kg/day 7 days in-feed, 5 days post sea transfer): 106 g | Weight ([2]; 5 mg/kg/day 7 days in-feed, 15 days post sea transfer): 107 g | Weight ([2]; 5 mg/kg/day 7 days in-feed, 76 days post sea transfer): 201 g | Weight ([2]; 5 mg/kg/day 7 days in-feed, 98 days post sea transfer): 277 g | Weight ([2]; 5 mg/kg/day 7 days in-feed, 125 days post sea transfer): 318 g | Weight ([2]; 5 mg/kg/day 7 days in-feed, 154 days post sea transfer): 371 g | Weight ([2]; 10 mg/kg/day 7 days in-feed, 5 days post sea transfer): 110 g | Weight ([2]; 10 mg/kg/day 7 days in-feed, 15 days post sea transfer): 115 g | Weight ([2]; 10 mg/kg/day 7 days in-feed, 76 days post sea transfer): 208 g | Weight ([2]; 10 mg/kg/day 7 days in-feed, 98 days post sea transfer): 291 g | Weight ([2]; 10 mg/kg/day 7 days in-feed, 125 days post sea transfer): 316 g | Weight ([2]; 10 mg/kg/day 7 days in-feed, 154 days post sea transfer): 384 g
